A mixed list of measured activities; the numbers were collected in NIAID ChemDB.

Common to all: growth or infection tests; agent: Candida albicans; read-out: MIC

Lines come from different laboratories, so protocols vary.

smiles,strain,result
CCn1nc(-c2ccccc2)n(NC)c1=O,ATCC16231,>250 µg/mL
N=C(N)c1ccc(Oc2ccc(-c3cc4ccc(C(=N)N)cc4[nH]3)cc2)cc1,-,3 µg/mL
O=C1CC(c2ccc(Cl)cc2)N(OCCc2nc3ncccc3[nH]2)C(c2ccc(Cl)cc2)C1,6 (NCIM-C27),12.5 µg/mL
CC1=CC2OC(=O)[C@@]3(C)CCC[C@@](C)([C@@H]23)[C@H]1CCO,CECT 1394,>100 µg/mL
CCCCCOc1ccc(-c2ccc(-c3ccc(C(=O)N[C@H]4CCCNC(=O)[C@@H]5C[C@H](NC(=O)NC)CN5C(=O)[C@H]([C@@H](C)O)NC(=O)[C@H](CCc5ccc(O)cc5)NC(=O)[C@@H]5C[C@@H](O)CN5C(=O)[C@H]([C@@H](C)O)NC4=O)cc3)cc2)cc1,ATCC 38247,0.78 µg/mL
c1ccc(C(Cn2ccnc2)OCc2cccc3ccccc23)cc1,CA2,128 µg/mL
COc1ccc(C2CC(=O)C(C)C(c3ccc(OC)cc3)N2OCCc2nc3ncccc3[nH]2)cc1,6 (NCIM-C27),50 µg/mL
O=C(/C=C/c1ccc(O)cc1O)c1ccccc1,SDAU4,50 µg/mL
N=C(N)c1ccc(-c2cc3cc(C4=NCCN4)ccc3s2)cc1,-,>60 µg/mL
CCCCCCCCCCCCCCC(=O)N[C@H]1CCCNC(=O)[C@@H]2C[C@H](N)CN2C(=O)[C@H]([C@@H](C)O)NC(=O)[C@H](CCc2ccc(O)cc2)NC(=O)[C@@H]2C[C@@H](O)CN2C(=O)[C@H]([C@@H](C)O)NC1=O,ATCC 62376,0.78 µg/mL
C(=C\c1ccccc1)/COC(Cn1ccnc1)c1ccccc1,CA7,128 µg/mL
CO[C@@H](n1cncn1)[C@](O)(Cn1cncn1)c1ccc(F)cc1F,-,>100 µg/mL
CC(C)(C)c1ccc(COC(Cn2ccnc2)c2ccccc2)cc1,CA12,128 µg/mL
CO[C@@H](n1cccn1)[C@](O)(Cn1cccn1)c1ccc(Cl)cc1,-,>100 µg/mL
Cc1ccc(O)c(C(=O)/C=C/c2ccc(O)cc2O)c1,SDAU6,75 µg/mL
O=c1[nH]nc(-c2ccccc2)n1-c1ccncc1,ATCC16231,>250 µg/mL
C[C@@]12CCC[C@]3(C)C4=CC(=O)OCC4=CC(OC1=O)[C@@H]23,CECT 1394,>100 µg/mL
CCCCCCCCN[C@H]1C[C@H]2C(=O)NCCC[C@H](NC(=O)c3ccc(-c4ccc(-c5ccc(OCCCCC)cc5)cc4)cc3)C(=O)N[C@@H]([C@@H](C)O)C(=O)N3C[C@H](O)C[C@H]3C(=O)N[C@@H](CCc3ccc(O)cc3)C(=O)N[C@@H]([C@@H](C)O)C(=O)N2C1,ATCC 62376,6.25 µg/mL
CC1C(=O)CC(c2ccc(Cl)cc2)N(OCCc2nc3ncccc3[nH]2)C1c1ccc(Cl)cc1,NCIM-C27,12.5 µg/mL
C[C@@H](O)[C@@H]1NC(=O)[C@H](CCc2ccc(O)cc2)NC(=O)[C@@H]2C[C@@H](O)CN2C(=O)[C@H]([C@@H](C)O)NC(=O)[C@@H](NC(=O)c2ccc(N3CCNCC3)cc2)CCCNC(=O)[C@@H]2C[C@H](N)CN2C1=O,ATCC 62376,>100 µg/mL
COc1ccc2c(Cc3ccc(C(C)(C)C)cc3)c3[n+](cc2c1OC)CCc1cc2c(cc1-3)OCO2,ATCC64550,6.25 µg/mL
N=C(N)c1ccc2cc(C(=N)N)[nH]c2c1,-,>60 µg/mL
CN[C@H]1CCCNC(=O)[C@@H]2C[C@H](N)CN2C(=O)[C@H]([C@@H](C)O)NC(=O)[C@H](CCc2ccc(O)cc2)NC(=O)[C@@H]2C[C@@H](O)CN2C(=O)[C@H]([C@@H](C)O)NC1=O,ATCC 38247,3.12 µg/mL
CCC(C)n1ncn(-c2ccc(N3CCN(c4ccc(OC[C@H]5CO[C@](Cn6cncn6)(c6ccc(Cl)cc6Cl)O5)cc4)CC3)cc2)c1=O,Isolate CA-3,>8 µg/mL
N=C(N)c1ccc2oc(-c3ccc(N)cc3)cc2c1,-,>60 µg/mL
C=C1C=C[C@@H]2[C@](C)(CCC[C@]2(C)C(=O)OC)[C@H]1CC(=O)OC,CECT 1394,>100 µg/mL
c1cc(C2=NCCN2)ccc1Oc1ccc(-c2cc3ccc(C4=NCCN4)cc3[nH]2)cc1,-,3 µg/mL
Cc1ccc(C(Cn2ccnc2)OCc2ccc(C(C)(C)C)cc2)cc1,Y0109,>128 µg/mL
N=C(N)c1cccc(-c2cc3cc(C(=N)N)ccc3[nH]2)c1,-,>60 µg/mL
CS[C@@H](n1cncn1)[C@](O)(Cn1cncn1)c1ccc(Cl)cc1Cl,-,>100 µg/mL
COC(=O)CC1C(C)=CC2OC(=O)[C@@]3(C)CCC[C@@]1(C)[C@@H]23,CECT 1394,>100 µg/mL
CCCCCOc1ccc(-c2ccc(-c3ccc(C(=O)N[C@H]4CCCNC(=O)[C@@H]5C[C@H](N)CN5C(=O)[C@H](CCC(=O)O)NC(=O)C(CCc5ccc(O)cc5)NC(=O)[C@@H]5C[C@@H](O)CN5C(=O)[C@H]([C@@H](C)O)NC4=O)cc3)cc2)cc1,ATCC 38247,1.56 µg/mL
Clc1ccc(C(Cn2ccnc2)OCc2cccc3ccccc23)cc1,3M,128 µg/mL
COc1ccc(C2C(C)C(=O)C(C)C(c3ccc(OC)cc3)N2OCCc2nc3ncccc3[nH]2)cc1,51 (NCIM-C27),50 µg/mL
CNn1c(-c2ccc(C)cc2)nn(C)c1=O,ATCC16231,>250 µg/mL
CS[C@@H](n1cncn1)[C@@](O)(Cn1cncn1)c1ccc(F)cc1,-,>100 µg/mL
Cc1ccc(C)n1-n1c(Cc2ccc(Cl)cc2)n[nH]c1=O,ATCC16231,>250 µg/mL
CO[C@@H](n1cccn1)[C@](O)(Cn1ccnc1)c1ccc(Cl)cc1,-,>100 µg/mL
CCC(C)n1ncn(-c2ccc(N3CCN(c4ccc(OC[C@H]5CO[C@](Cn6cncn6)(c6ccc(Cl)cc6Cl)O5)cc4)CC3)cc2)c1=O,ATCC 24433,0.12 µg/mL
CC[C@@H]([C@H](C)O)n1ncn(-c2ccc(N3CCN(c4ccc(OC[C@@H]5CO[C@@](Cn6cncn6)(c6ccc(F)cc6F)C5)cc4)CC3)cc2)c1=O,Isolate CA-6,>4 µg/mL
N=C(N)c1ccc(C2Cc3cc(C(=N)N)ccc3S2(=O)=O)cc1,-,>60 µg/mL
C[C@@]12CCC[C@]3(C)C4=CC(=O)OC(O)C4C=C(OC1=O)[C@@H]23,CECT 1394,>25 µg/mL

3 of the rows above, restated:

smiles | strain | result
CO[C@@H](n1cncn1)[C@](O)(Cn1cncn1)c1ccc(F)cc1F | - | >100 µg/mL
CO[C@@H](n1cccn1)[C@](O)(Cn1ccnc1)c1ccc(Cl)cc1 | - | >100 µg/mL
Cc1ccc(C)n1-n1c(Cc2ccc(Cl)cc2)n[nH]c1=O | ATCC16231 | >250 µg/mL

Blank or dashed fields: not listed here.